Each structure is given as a SMILES string.

Chains of the proteins cited; added tags and fusions are not shown. Residues count along the entry.
UniProt P04757, 26-499 limits assumed: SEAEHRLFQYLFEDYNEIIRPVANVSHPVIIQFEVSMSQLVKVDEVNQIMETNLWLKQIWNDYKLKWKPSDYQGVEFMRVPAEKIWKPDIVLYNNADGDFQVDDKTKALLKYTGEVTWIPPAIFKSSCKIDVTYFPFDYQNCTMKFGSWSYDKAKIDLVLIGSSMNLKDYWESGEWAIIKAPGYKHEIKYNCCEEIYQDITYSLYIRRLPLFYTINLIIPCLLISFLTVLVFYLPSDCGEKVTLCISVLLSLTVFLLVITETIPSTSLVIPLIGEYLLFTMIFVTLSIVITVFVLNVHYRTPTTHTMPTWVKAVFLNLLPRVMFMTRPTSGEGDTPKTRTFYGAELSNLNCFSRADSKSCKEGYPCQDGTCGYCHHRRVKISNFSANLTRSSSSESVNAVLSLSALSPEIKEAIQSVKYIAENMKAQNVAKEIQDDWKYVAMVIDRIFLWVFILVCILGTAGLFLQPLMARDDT
UniProt P12390, 25-500 limits assumed: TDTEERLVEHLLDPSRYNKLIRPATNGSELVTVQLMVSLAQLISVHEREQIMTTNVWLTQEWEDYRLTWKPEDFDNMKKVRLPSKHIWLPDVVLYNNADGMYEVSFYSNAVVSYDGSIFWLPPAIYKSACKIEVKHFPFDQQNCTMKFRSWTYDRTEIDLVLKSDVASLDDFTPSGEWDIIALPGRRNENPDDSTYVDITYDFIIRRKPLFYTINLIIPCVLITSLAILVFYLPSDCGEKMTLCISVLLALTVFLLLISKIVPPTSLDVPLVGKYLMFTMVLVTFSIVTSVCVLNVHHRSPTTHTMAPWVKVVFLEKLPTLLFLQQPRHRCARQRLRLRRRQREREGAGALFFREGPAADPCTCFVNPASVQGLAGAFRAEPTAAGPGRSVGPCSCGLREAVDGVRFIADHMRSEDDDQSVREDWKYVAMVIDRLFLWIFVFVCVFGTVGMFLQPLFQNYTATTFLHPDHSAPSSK
UniProt P12391, 31-464 limits assumed: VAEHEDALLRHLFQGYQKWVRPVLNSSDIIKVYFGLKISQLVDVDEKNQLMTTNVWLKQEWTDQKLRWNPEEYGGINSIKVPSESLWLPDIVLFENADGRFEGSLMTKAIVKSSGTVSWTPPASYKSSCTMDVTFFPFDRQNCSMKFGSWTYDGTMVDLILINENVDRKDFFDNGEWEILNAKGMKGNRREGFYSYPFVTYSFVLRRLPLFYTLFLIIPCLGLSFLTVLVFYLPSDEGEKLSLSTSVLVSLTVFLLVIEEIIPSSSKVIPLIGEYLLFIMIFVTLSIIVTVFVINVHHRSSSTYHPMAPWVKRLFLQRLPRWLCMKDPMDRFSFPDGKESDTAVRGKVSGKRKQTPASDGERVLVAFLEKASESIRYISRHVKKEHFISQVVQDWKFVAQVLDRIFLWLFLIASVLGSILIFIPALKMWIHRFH
UniProt P43143, 31-493 limits assumed: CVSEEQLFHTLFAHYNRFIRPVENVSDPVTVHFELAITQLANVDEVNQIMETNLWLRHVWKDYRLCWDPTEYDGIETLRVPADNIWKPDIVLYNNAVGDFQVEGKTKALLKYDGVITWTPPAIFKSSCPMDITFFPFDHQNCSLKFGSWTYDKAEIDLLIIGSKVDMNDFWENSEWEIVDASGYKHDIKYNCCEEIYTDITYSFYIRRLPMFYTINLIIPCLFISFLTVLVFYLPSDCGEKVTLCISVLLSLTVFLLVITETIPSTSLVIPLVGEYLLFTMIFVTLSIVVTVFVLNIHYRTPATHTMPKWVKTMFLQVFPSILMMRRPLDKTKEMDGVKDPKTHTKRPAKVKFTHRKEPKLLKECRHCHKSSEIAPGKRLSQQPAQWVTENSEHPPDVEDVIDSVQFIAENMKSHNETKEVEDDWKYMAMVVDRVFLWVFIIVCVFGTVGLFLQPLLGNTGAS
UniProt Q05941, 23-502 limits assumed: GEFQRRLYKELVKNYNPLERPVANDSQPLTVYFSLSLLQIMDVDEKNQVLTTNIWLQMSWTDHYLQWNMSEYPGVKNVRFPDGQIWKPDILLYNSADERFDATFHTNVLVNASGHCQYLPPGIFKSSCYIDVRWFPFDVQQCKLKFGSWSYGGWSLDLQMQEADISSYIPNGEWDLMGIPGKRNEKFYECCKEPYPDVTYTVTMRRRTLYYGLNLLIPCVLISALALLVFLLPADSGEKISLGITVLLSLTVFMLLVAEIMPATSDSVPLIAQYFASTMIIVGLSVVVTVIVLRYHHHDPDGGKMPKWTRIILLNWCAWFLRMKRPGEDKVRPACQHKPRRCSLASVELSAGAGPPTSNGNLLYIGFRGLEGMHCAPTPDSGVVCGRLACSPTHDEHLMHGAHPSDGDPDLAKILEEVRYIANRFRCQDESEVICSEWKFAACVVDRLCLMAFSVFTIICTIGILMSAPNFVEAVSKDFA
UniProt P12392, 21-495 limits assumed: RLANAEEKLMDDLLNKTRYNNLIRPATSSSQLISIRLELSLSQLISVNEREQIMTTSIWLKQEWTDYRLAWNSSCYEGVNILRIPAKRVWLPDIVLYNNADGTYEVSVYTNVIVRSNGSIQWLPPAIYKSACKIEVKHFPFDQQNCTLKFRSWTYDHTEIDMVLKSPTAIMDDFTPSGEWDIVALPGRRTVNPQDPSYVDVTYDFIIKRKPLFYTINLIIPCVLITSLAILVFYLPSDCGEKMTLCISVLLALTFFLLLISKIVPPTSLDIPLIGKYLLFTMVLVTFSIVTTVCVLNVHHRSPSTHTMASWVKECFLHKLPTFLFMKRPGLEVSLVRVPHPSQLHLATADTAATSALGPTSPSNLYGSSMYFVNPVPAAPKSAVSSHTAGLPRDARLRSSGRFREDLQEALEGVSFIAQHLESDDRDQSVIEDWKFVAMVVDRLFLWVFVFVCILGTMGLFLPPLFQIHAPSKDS
UniProt P09483, 31-630 limits assumed: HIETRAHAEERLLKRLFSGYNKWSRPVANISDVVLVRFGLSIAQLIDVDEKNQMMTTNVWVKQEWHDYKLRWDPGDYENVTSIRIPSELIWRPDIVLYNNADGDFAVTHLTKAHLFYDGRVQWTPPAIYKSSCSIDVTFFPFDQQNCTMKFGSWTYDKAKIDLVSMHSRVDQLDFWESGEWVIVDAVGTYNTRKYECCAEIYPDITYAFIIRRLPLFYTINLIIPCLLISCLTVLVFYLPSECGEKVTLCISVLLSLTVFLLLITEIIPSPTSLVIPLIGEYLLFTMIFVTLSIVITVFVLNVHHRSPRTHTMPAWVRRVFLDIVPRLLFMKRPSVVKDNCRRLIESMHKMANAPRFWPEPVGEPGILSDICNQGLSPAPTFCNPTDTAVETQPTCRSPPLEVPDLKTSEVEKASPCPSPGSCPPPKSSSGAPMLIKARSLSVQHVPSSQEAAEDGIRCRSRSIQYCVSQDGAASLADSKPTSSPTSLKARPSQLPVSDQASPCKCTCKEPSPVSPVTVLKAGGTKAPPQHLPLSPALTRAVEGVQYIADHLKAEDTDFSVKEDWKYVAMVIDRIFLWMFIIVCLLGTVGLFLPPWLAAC
UniProt P43144, 26-479 limits assumed: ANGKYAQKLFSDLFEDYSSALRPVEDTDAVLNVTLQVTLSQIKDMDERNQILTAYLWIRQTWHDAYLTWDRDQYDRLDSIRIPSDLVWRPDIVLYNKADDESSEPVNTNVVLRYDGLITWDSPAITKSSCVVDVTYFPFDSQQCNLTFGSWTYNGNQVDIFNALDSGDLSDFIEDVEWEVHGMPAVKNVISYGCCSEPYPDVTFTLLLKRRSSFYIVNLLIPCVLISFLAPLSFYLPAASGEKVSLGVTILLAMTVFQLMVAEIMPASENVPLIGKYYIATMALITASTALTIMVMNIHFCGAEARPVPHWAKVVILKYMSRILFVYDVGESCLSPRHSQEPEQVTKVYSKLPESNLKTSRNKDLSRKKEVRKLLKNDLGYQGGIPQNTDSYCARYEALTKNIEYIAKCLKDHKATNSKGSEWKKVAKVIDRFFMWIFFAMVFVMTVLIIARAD
UniProt Q9JLB5, 25-447 limits assumed: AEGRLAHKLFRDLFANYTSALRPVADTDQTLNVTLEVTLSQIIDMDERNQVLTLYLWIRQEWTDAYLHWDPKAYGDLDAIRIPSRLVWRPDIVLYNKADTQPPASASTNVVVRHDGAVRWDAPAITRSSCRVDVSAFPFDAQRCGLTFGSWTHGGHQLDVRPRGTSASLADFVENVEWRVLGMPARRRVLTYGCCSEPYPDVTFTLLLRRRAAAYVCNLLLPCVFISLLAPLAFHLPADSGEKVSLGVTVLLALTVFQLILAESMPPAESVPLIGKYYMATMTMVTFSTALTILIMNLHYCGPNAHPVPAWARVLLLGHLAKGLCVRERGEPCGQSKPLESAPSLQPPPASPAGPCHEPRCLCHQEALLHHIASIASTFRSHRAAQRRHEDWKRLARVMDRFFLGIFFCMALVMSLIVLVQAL

Data on 18 compounds can be found in ChEMBL document CHEMBL4364262 (J Med Chem, 2019).

Test [1] addresses T1, Neuronal acetylcholine receptor; alpha3/beta2 (Rattus norvegicus, UniProt P04757+P12390).
Test [2] has as its target T2, Nicotinic acetylcholine receptor alpha6/alpha3/beta2/beta3 (Rattus norvegicus, UniProt P04757+P12390+P12391+P43143).
Test [3] deals with T1, Neuronal acetylcholine receptor; alpha3/beta2. This is another data set of the same source.
Test [4] has as its target T2, Nicotinic acetylcholine receptor alpha6/alpha3/beta2/beta3. The source holds these as a separate data set.
The target in test [5] is Neuronal acetylcholine receptor subunit alpha-7 (Rattus norvegicus, UniProt Q05941).
For test [6], the target named is Neuronal acetylcholine receptor; alpha3/beta4 (Rattus norvegicus, UniProt P04757+P12392).
Test [7] addresses Neuronal acetylcholine receptor; alpha4/beta2 (Rattus norvegicus, UniProt P09483+P12390).
Test [8] addresses Nicotinic acetylcholine receptor alpha9/alpha10 (Rattus norvegicus, UniProt P43144+Q9JLB5).

The term IC50 denotes the concentration that inhibits the measured activity by half. The low end stands for higher potency, the high end for lower potency. Compound `CC(C)C[C@@H]1NC(=O)[C@H](CCC(N)=O)NC(=O)[C@@H]2CCCN2C(=O)[C@H](Cc2cnc[nH]2)NC(=O)[C@H](CC(N)=O)NC(=O)[C@H](C(C)C)NC(=O)[C@H](CO)NC(=O)[C@@H]2CSSC[C@H](NC(=O)CN)C(=O)N[C@@H](CSSC[C@@H](C(N)=O)NC1=O)C(=O)N[C@@H](CO)C(=O)N[C@@H](Cc1cnc[nH]1)C(=O)N1CCC[C@H]1C(=O)N[C@@H](C)C(=O)N2` came in with an IC50 in test [1] of 0.0771 µM. Turning to `CC[C@H](C)[C@@H]1NC(=O)[C@H](Cc2cnc[nH]2)NC(=O)[C@@H]2CCCN2C(=O)[C@H](CC(N)=O)NC(=O)[C@H](CC(N)=O)NC(=O)[C@H](C(C)C)NC(=O)[C@H](CC(N)=O)NC(=O)[C@@H]2CSSC[C@H](NC(=O)CN)C(=O)N[C@@H](CSSC[C@@H](C(=O)NCC(N)=O)NC1=O)C(=O)N[C@@H](CO)C(=O)N[C@@H](Cc1cnc[nH]1)C(=O)N1CCC[C@H]1C(=O)N[C@@H](C)C(=O)N2`, the concentration for half-maximal inhibition (IC50) in test [1] amounted to 0.011 µM; in test [2], 0.201 µM. In test [2], `CC[C@H](C)[C@@H]1NC(=O)[C@H](CCC(=O)O)NC(=O)[C@@H]2CCCN2C(=O)[C@H](Cc2cnc[nH]2)NC(=O)[C@H](CCCCC(=O)O)NC(=O)[C@H]([C@@H](C)CC)NC(=O)[C@H](Cc2cnc[nH]2)NC(=O)[C@@H]2CSSC[C@H](NC(=O)CN)C(=O)N[C@@H](CSSC[C@@H](C(N)=O)NC1=O)C(=O)N[C@@H](CO)C(=O)N[C@@H](Cc1cnc[nH]1)C(=O)N1CCC[C@H]1C(=O)N[C@@H](C)C(=O)N2` returned an IC50 of 0.0582 µM. Turning to `CC(C)C[C@@H]1NC(=O)[C@H](CO)NC(=O)[C@@H]2CSSC[C@@H](C(N)=O)NC(=O)[C@H](Cc3ccc(O)cc3)NC(=O)[C@H](CC(=O)O)NC(=O)[C@@H]3CCCN3C(=O)[C@H](CC(N)=O)NC(=O)[C@H](CC(N)=O)NC(=O)[C@H](C)NC(=O)[C@H](C)NC(=O)[C@H](CSSC[C@H](NC(=O)CN)C(=O)N2)NC(=O)[C@@H]2CCCN2C(=O)[C@@H]2CCCN2C1=O`, the values for the IC50 in test [3] and in test [4] were 0.0077 µM and 0.0109 µM, respectively. In turn, `CC[C@H](C)[C@@H]1NC(=O)[C@H](Cc2cnc[nH]2)NC(=O)[C@@H]2CSSC[C@H](NC(=O)CN)C(=O)N[C@@H](CSSC[C@@H](C(N)=O)NC(=O)[C@H](CC(C)C)NC(=O)[C@H](CCC(=O)O)NC(=O)[C@@H]3CCCN3C(=O)[C@H](Cc3cnc[nH]3)NC(=O)[C@H](CC(N)=O)NC1=O)C(=O)N[C@@H](CO)C(=O)N[C@@H](Cc1cnc[nH]1)C(=O)N1CCC[C@H]1C(=O)N[C@@H](C)C(=O)N2` gave an IC50 in test [2] of 0.00104 µM. Take `CC[C@H](C)[C@@H]1NC(=O)CNC(=O)[C@H](C)NC(=O)[C@@H]2CSSC[C@H](NC(=O)CN)C(=O)N[C@@H](CSSC[C@@H](C(N)=O)NC(=O)[C@H](CC(C)C)NC(=O)[C@H](CCC(=O)O)NC(=O)[C@H](CCC(=O)O)NC(=O)[C@H](Cc3cnc[nH]3)NC1=O)C(=O)N[C@@H](C)C(=O)N[C@@H](CCCNC(=N)N)C(=O)N[C@@H](C)C(=O)N[C@@H](C)C(=O)N2`: the IC50 in test [3] amounted to 0.0098 µM; in test [4] it was 0.0844 µM. As to `CC(C)C[C@@H]1NC(=O)[C@H](CCCNC(=N)N)NC(=O)[C@@H]2CCCN2C(=O)[C@H](Cc2cnc[nH]2)NC(=O)[C@H](CC(N)=O)NC(=O)[C@H](C(C)C)NC(=O)[C@H](CO)NC(=O)[C@@H]2CSSC[C@H](NC(=O)CN)C(=O)N[C@@H](CSSC[C@@H](C(N)=O)NC1=O)C(=O)N[C@@H](CO)C(=O)N[C@@H](Cc1cnc[nH]1)C(=O)N1CCC[C@H]1C(=O)N[C@@H](C)C(=O)N2`, the IC50 in test [1] is 0.109 µM; in test [2] it was 0.0074 µM. The compound `CC[C@H](C)[C@@H]1NC(=O)[C@H](Cc2cnc[nH]2)NC(=O)[C@@H]2CSSC[C@H](NC(=O)CN)C(=O)N[C@@H](CSSC[C@@H](C(N)=O)NC(=O)[C@H](CC(C)C)NC(=O)[C@H](CCC(=O)O)NC(=O)[C@@H]3CCCN3C(=O)[C@H](Cc3cnc[nH]3)NC(=O)[C@H](CC(=O)O)NC1=O)C(=O)N[C@@H](CO)C(=O)N[C@@H](Cc1cnc[nH]1)C(=O)N1CCC[C@H]1C(=O)N[C@@H](C)C(=O)N2` displayed an IC50 in test [2] of 0.0199 µM. That is a double-digit nanomolar value. As for `CC[C@H](C)[C@@H]1NC(=O)[C@H](Cc2cnc[nH]2)NC(=O)[C@@H]2CSSC[C@H](NC(=O)CN)C(=O)N[C@@H](CSSC[C@@H](C(N)=O)NC(=O)[C@H](CC(C)C)NC(=O)[C@H](CCC(=O)O)NC(=O)[C@@H]3CCCN3C(=O)[C@H](Cc3cnc[nH]3)NC(=O)[C@H](CCC(=O)O)NC1=O)C(=O)N[C@@H](CO)C(=O)N[C@@H](Cc1cnc[nH]1)C(=O)N1CCC[C@H]1C(=O)N[C@@H](C)C(=O)N2`, inhibition in test [2] was half-maximal at 0.0162 µM (IC50). For `CC[C@H](C)[C@@H]1NC(=O)[C@H](CCC(=O)O)NC(=O)[C@@H]2CCCN2C(=O)[C@H](Cc2cnc[nH]2)NC(=O)[C@H](CC(N)=O)NC(=O)[C@H]([C@@H](C)CC)NC(=O)[C@H](Cc2cnc[nH]2)NC(=O)[C@@H]2CSSC[C@H](NC(=O)CN)C(=O)N[C@@H](CSSC[C@@H](C(N)=O)NC1=O)C(=O)N[C@@H](CO)C(=O)N[C@@H](Cc1cnc[nH]1)C(=O)N1CCC[C@H]1C(=O)N[C@@H](C)C(=O)N2`, inhibition in test [2] was half-maximal at 0.00086 µM (IC50). With `CCCC[C@@H]1NC(=O)[C@H](Cc2cnc[nH]2)NC(=O)[C@@H]2CSSC[C@H](NC(=O)CN)C(=O)N[C@@H](CSSC[C@@H](C(N)=O)NC(=O)[C@H]([C@@H](C)CC)NC(=O)[C@H](CCC(=O)O)NC(=O)[C@@H]3CCCN3C(=O)[C@H](Cc3cnc[nH]3)NC(=O)[C@H](CCCCC(=O)O)NC1=O)C(=O)N[C@@H](CO)C(=O)N[C@@H](Cc1cnc[nH]1)C(=O)N1CCC[C@H]1C(=O)N[C@@H](C)C(=O)N2`, the IC50 is 0.015 µM in test [5], 0.38 µM in test [6] and 2.07 µM in test [7]. In turn, `CC[C@H](C)[C@@H]1NC(=O)[C@H](Cc2cnc[nH]2)NC(=O)[C@@H]2CSSC[C@H](NC(=O)CN)C(=O)N[C@@H](CSSC[C@@H](C(N)=O)NC(=O)[C@H](CC(C)C)NC(=O)[C@H](CCC(=O)O)NC(=O)[C@@H]3CCCN3C(=O)[C@H](Cc3cnc[nH]3)NC(=O)[C@H](CCCC(=O)O)NC1=O)C(=O)N[C@@H](CO)C(=O)N[C@@H](Cc1cnc[nH]1)C(=O)N1CCC[C@H]1C(=O)N[C@@H](C)C(=O)N2` showed an IC50 in test [2] of 0.155 µM.

Consider `CC[C@H](C)[C@@H]1NC(=O)[C@H](Cc2cnc[nH]2)NC(=O)[C@@H]2CSSC[C@H](NC(=O)CN)C(=O)N[C@@H](CSSC[C@@H](C(N)=O)NC(=O)[C@H](CC(C)C)NC(=O)[C@H](CCC(=O)O)NC(=O)[C@@H]3CCCN3C(=O)[C@H](Cc3cnc[nH]3)NC(=O)[C@H](CCCCCC(=O)O)NC1=O)C(=O)N[C@@H](CO)C(=O)N[C@@H](Cc1cnc[nH]1)C(=O)N1CCC[C@H]1C(=O)N[C@@H](C)C(=O)N2`, for which the half-maximal inhibitory concentration (IC50) in test [2] was 0.0503 µM. For the compound `CC(C)C[C@@H]1NC(=O)[C@H](CCCC(=O)O)NC(=O)[C@@H]2CCCN2C(=O)[C@H](Cc2cnc[nH]2)NC(=O)[C@H](CC(N)=O)NC(=O)[C@H](C(C)C)NC(=O)[C@H](CO)NC(=O)[C@@H]2CSSC[C@H](NC(=O)CN)C(=O)N[C@@H](CSSC[C@@H](C(N)=O)NC1=O)C(=O)N[C@@H](CO)C(=O)N[C@@H](Cc1cnc[nH]1)C(=O)N1CCC[C@H]1C(=O)N[C@@H](C)C(=O)N2`, the IC50 was 0.115 µM in test [1] and 0.0292 µM in test [2]. In the case of `CCCC[C@@H]1NC(=O)[C@H](CCC(=O)O)NC(=O)[C@@H]2CCCN2C(=O)[C@H](Cc2cnc[nH]2)NC(=O)[C@H](CC(N)=O)NC(=O)[C@H](C(C)C)NC(=O)[C@H](CO)NC(=O)[C@@H]2CSSC[C@H](NC(=O)CN)C(=O)N[C@@H](CSSC[C@@H](C(N)=O)NC1=O)C(=O)N[C@@H](CO)C(=O)N[C@@H](Cc1cnc[nH]1)C(=O)N1CCC[C@H]1C(=O)N[C@@H](C)C(=O)N2`, the IC50 in test [1] is 0.0211 µM; in test [2], 0.0132 µM. `CC(C)C[C@@H]1NC(=O)[C@H](CCC(=O)O)NC(=O)[C@@H]2CCCN2C(=O)[C@H](Cc2cnc[nH]2)NC(=O)[C@H](CC(N)=O)NC(=O)[C@H](C(C)C)NC(=O)[C@H](CO)NC(=O)[C@@H]2CSSC[C@H](NC(=O)CN)C(=O)N[C@@H](CSSC[C@@H](C(N)=O)NC1=O)C(=O)N[C@@H](CO)C(=O)N[C@@H](Cc1cnc[nH]1)C(=O)N1CCC[C@H]1C(=O)N[C@@H](C)C(=O)N2` came in with a concentration for half-maximal inhibition (IC50) in test [8] of 0.03 µM. With `CCCC[C@@H]1NC(=O)[C@H](Cc2cnc[nH]2)NC(=O)[C@@H]2CSSC[C@H](NC(=O)CN)C(=O)N[C@@H](CSSC[C@@H](C(N)=O)NC(=O)[C@H](CC(C)C)NC(=O)[C@H](CCC(=O)O)NC(=O)[C@@H]3CCCN3C(=O)[C@H](Cc3cnc[nH]3)NC(=O)[C@H](CCCCC(=O)O)NC1=O)C(=O)N[C@@H](CO)C(=O)N[C@@H](Cc1cnc[nH]1)C(=O)N1CCC[C@H]1C(=O)N[C@@H](C)C(=O)N2`, the IC50 in test [5] is 0.0187 µM; in test [6] it was 0.168 µM; in test [7], 1.93 µM. In the case of `CC[C@H](C)[C@@H]1NC(=O)[C@H](Cc2cnc[nH]2)NC(=O)[C@@H]2CSSC[C@H](NC(=O)CN)C(=O)N[C@@H](CSSC[C@@H](C(N)=O)NC(=O)[C@H](CC(C)C)NC(=O)[C@H](CCC(=O)O)NC(=O)[C@@H]3CCCN3C(=O)[C@H](Cc3cnc[nH]3)NC(=O)[C@H](CCCCC(=O)O)NC1=O)C(=O)N[C@@H](CO)C(=O)N[C@@H](Cc1cnc[nH]1)C(=O)N1CCC[C@H]1C(=O)N[C@@H](C)C(=O)N2`, the 50% inhibitory concentration (IC50) in test [2] is 0.0223 µM.
